From publication PMC7887755, “Structure–Activity Relationships of Pyrazolo[1,5-a]pyrimidin-7(4H)-ones as Antitubercular Agents” (ACS Infectious Diseases, 2021)

System: WT H37Rv
Format: cell-based
Conditions: 10× MIC added to 10^9 CFUs of H37Rv, 24 h

Cc1nn2c(=O)cc(-c3ccc(F)c(F)c3)[nH]c2c1-c1ccccc1 [Compound P19, 5-(3,4-Difluorophenyl)-2-methyl-3-phenylpyrazolo[1,5-a]pyrimidin-7(4H)-one]
degradation of compound by Mtb: about 10%
